Biological target: NiVM RBP on live Nipah virus Malaysia (P3 stock with N277K polymorphism) (Nipah virus, strain Malaysia)
Assay: cell-based or functional assay

For HENV-26 (antibody), the Area under the curve (neutralization) was 293 and the IC50, plaque reduction neutralization of live virus was 0.04 µg/mL.
